A mixed list of measured activities; the numbers were collected in NIAID ChemDB.

Shared fields: growth or infection tests; agent: Mycobacterium tuberculosis

a–b is a range or a potency band.

smiles,conditions,read by,endpoint,tested at,strain,mutations,result
O=c1nc(SCc2cccc3ccccc23)c2[nH]cnc2[nH]1,-,-,inhibition,6.25 µg/mL,H37Rv,-,43%
CCCCS(=O)(=O)Nc1ccc2[nH]c(C(=O)N3CCCC3)c(C)c2c1,-,resazurin,MIC90,-,H37Rv,-,1.56 µM
CCOc1cccc(OCC)c1N,-,-,MIC,-,H37Rv,-,>100 µg/mL
Nc1c(C(=O)O)cc(Br)c2c1C(=O)c1ccccc1C2=O,-,BACTEC,MIC bound,-,H37Rv,-,>12.5 µg/mL
NNC(=O)c1ccncc1,-,-,MIC,-,4S,-,0.1 µg/mL
COc1ccc(C(=O)/C=C/c2ccccc2Cl)cc1,14 d,MTT,MIC,-,H37Rv,-,32 µg/mL
CC(C)(C)c1cccc(N2CC3CN(Cc4ccc([N+](=O)[O-])o4)CC3C2)c1,-,resazurin,MIC90,-,Clinical Isolate 16833,INH RFP resistant,2.22 µg/mL
Nc1c(N=Nc2ccc(Cc3ccc(O)cc3)cc2)cc(S(=O)(=O)[O-])c2ccccc12.[Na+],-,-,MIC,-,H37Rv,-,>100 µg/mL
O=C(/C=C/c1ccccc1)c1ccc(O)cc1,14 d,resazurin,MIC,-,H37Rv,-,32 µg/mL
CN(C)C(=S)SSC(C)(C)C,-,BACTEC,inhibition,128 µg/mL,H37Rv,-,99%
O=[N+]([O-])c1ccc(C2=NOC(c3ccc(N4CCN(Cc5ccccc5)CC4)cc3)C2)o1,-,-,MIC,-,CDC1551,-,0.012 µg/mL
CO[C@H]1/C=C/O[C@@]2(C)Oc3c(C)c(O)c4c(O)c(c5c(c4c3C2=O)NC2(CCN(CC(C)C)CC2)N=5)=NC(=O)/C(C)=C\C=C\[C@H](C)[C@H](O)[C@@H](C)[C@@H](O)[C@@H](C)[C@H](OC(C)=O)[C@@H]1C,-,-,MIC,-,H37Rv,-,0.03 µg/mL
O=[N+]([O-])c1ccc(CN2CC3CN(c4ccc(F)cc4)CC3C2)o1,-,resazurin,MIC90,-,H37Rv,-,0.062 µg/mL
CCCCS(=O)(=O)Nc1ccc2[nH]c(CNC(C)=O)c(C)c2c1,-,resazurin,MIC90,-,H37Rv,-,>100 µM
COc1ccc2c(c1)[n+]([O-])c(/C(C)=N/NC(=O)c1ccccc1O)c(C)[n+]2[O-],-,BACTEC,MIC,-,H37Rv,-,6.25 µg/mL
O=C(c1ccc([N+](=O)[O-])o1)N1CCc2cc(N3CCN(Cc4ccccc4)CC3)ccc2C1,-,-,MIC,-,UT30,-,0.012 µg/mL
CC(=O)Nc1ccc(Cl)cc1,-,-,MIC,-,H37Rv,-,>100 µg/mL
Cc1ccc2c(N=Nc3ccc(C(=N)N)cc3)ccc(O)c2n1,-,-,MIC bound,-,H37Rv,-,>6.25 µg/mL
O=[N+]([O-])c1ccc(CN2CC3CN(c4ccccc4)CC3C2)o1,-,resazurin,MIC90,-,H37Rv,-,0.031 µg/mL
O=C1N=c2ccccc2=C1c1sc(=O)n(Cc2nc3ccccc3[nH]2)c1O,-,BACTEC,MIC bound,-,H37Rv,-,>6.25 µg/mL
CCCCCS(=O)(=O)Nc1ccc2[nH]c(Br)c(C)c2c1,-,resazurin,MIC90,-,H37Rv,-,0.2 µM
CO/N=C(\C)c1cccc(F)c1NS(=O)(=O)c1nc2c(F)cnc(OC)n2n1,-,visual reading,MIC50,-,M22,INH RIF resistant,1 µM
CCN(CC)CCNc1ccc2nnn3c4ccc([N+](=O)[O-])cc4c(=O)c1c23,-,BACTEC,MIC bound,-,H37Rv,-,≤12.5 µg/mL
CCN(CC)CCCN=c1cc2n(-c3ccc(Cl)c(Cl)c3)c3ccccc3nc-2cc1Nc1ccc(Cl)c(Cl)c1,multidrug-resistant,-,MIC,-,2230,-,0.12 µg/mL
CCCCS(=O)(=O)Nc1ccc2[nH]c(C(N)=O)c(C)c2c1,-,resazurin,MIC90,-,DRM167 16x6,I122S DG167-resistant,>100 µM
COc1ccc2[nH]c(=O)cc(C)c2c1,-,-,MIC,-,H37Rv,-,>100 µg/mL
O=c1nc(N2CCN(CC3CCCCC3)CC2)sc2c([N+](=O)[O-])cc(C(F)(F)F)cc12,-,resazurin,MIC90,-,Clinical Isolate 16833,INH RFP resistant,<0.016 µg/mL
O=C1Cc2cc(C(=O)CN3CCN(c4ccc([N+](=O)[O-])cc4)CC3)ccc2N1,-,visual reading / absorbance,MIC,-,H37Rv,-,25 µg/mL
CCOC(=O)c1cc(C2(OC)CCN(Cc3ccccc3)C2=O)c(-c2cc(C)no2)[nH]1,-,resazurin,MIC bound,-,H37Rv,-,>6.25 µg/mL
Nc1ccc(Cl)cc1C(=O)O,-,-,MIC,-,H37Rv,-,>100 µg/mL
CC(=O)NCC1CN(c2ccc(C(C)=O)cc2)C(=O)O1,-,-,MIC,-,H37Rv,-,1.25 µg/mL
COc1ccc(C(=O)/C=C/c2ccc(F)cc2)c(F)c1,-,MTT,MIC,-,H37Rv,-,32 µg/mL
NC(=O)c1cnccn1,7 d,-,EC50,-,TB186,-,<800 µg/mL
COc1ccc(C(=O)/C=C/c2ccccc2Cl)c(F)c1,7 d,MTT,MIC,-,H37Rv,-,32 µg/mL
CCc1cc(CC)c(C(=O)C=Nc2ccc(N=CC(=O)c3c(CC)cc(CC)cc3CC)cc2)c(CC)c1,-,-,MIC,-,H37Rv,-,>100 µg/mL
CO[C@H]1/C=C/O[C@@]2(C)Oc3c(C)c(O)c4c(O)c(c(/C=N/N5CCN(C)CC5)c(O)c4c3C2=O)NC(=O)/C(C)=C\C=C\[C@H](C)[C@H](O)[C@@H](C)[C@@H](O)[C@@H](C)[C@H](OC(C)=O)[C@@H]1C,-,-,MIC,-,10 isolates,-,0.06–0.24 µg/mL
O=C([O-])C(=O)c1ccc[nH]1.[K+],-,-,MIC,-,H37Rv,-,>100 µg/mL
CN1C(=O)Cc2cc(C(=O)CN3CCN(c4noc5cc(Cl)ccc45)CC3)ccc21,-,visual reading / absorbance,MIC,-,H37Rv,-,6.25 µg/mL
O=C(/C=C/c1c(F)cccc1Cl)c1ccccc1,14 d,MTT,MIC,-,H37Rv,-,16 µg/mL
Nc1ncc(Br)cc1Br,-,-,MIC,-,H37Rv,-,>100 µg/mL
CCOC(=O)CNC(=O)C(=[N+]=[N-])C(=O)COc1ccc(F)cc1,-,BACTEC,MIC,-,H37Rv,-,≥12.5 µg/mL
C[N+]1(C)CCCCCC1.[Br-],-,-,MIC,-,H37Rv,-,>100 µg/mL
CCCCS(=O)(=O)Nc1ccc2[nH]c(C(=O)NCc3ccc(C)cc3)c(C)c2c1,-,resazurin,MIC90,-,H37Rv,-,3.1–6.2 µM
O=C(CC(=O)Nc1ccccc1)CC(=O)Nc1ccccc1,-,-,MIC,-,H37Rv,-,>100 µg/mL
N#CCC(=O)N/N=C(\c1ccccc1)C(c1ccccc1)C1(O)C(=O)Nc2c(Cl)ccc(Cl)c21,-,BACTEC,MIC bound,-,H37Rv,-,>12.5 µg/mL
Cl.Nc1cccc(OCCCBr)c1,-,-,MIC,-,H37Rv,-,25 µg/mL
N#Cc1ccc(N2CC3CN(Cc4ccc([N+](=O)[O-])o4)CC3C2)cc1,-,resazurin,MIC90,-,H37Rv,-,0.06 µg/mL
CCCCS(=O)(=O)Nc1ccc2[nH]c(C(=O)OC(C)(C)C)c(C)c2c1,-,resazurin,MIC90,-,H37Rv,-,0.78 µM
CO[C@H]1/C=C/O[C@@]2(C)Oc3c(C)c(O)c4c(O)c(c(/C=N/N5CCN(C)CC5)c(O)c4c3C2=O)NC(=O)/C(C)=C\C=C\[C@H](C)[C@H](O)[C@@H](C)[C@@H](O)[C@@H](C)[C@H](OC(C)=O)[C@@H]1C,-,-,MIC,-,TN807,-,>32 µg/mL
O=[N+]([O-])c1ccc(N=Nc2ccc(NNc3ccc([N+](=O)[O-])cn3)c3cc4ccccc4cc23)nc1,-,BACTEC,MIC bound,-,H37Rv,-,>12.5 µg/mL
O=C(c1ccc(O)cc1)c1ccc(O)cc1,-,-,MIC,-,H37Rv,-,50 µg/mL
CCOC(=O)C1=C(C)O/C(=C\c2ccccc2)C1=O,-,BACTEC,inhibition,12.5 µg/mL,H37Rv,-,27%
Cc1cc(OCCO)ccc1N.O=S(=O)(O)O,-,-,MIC,-,H37Rv,-,>100 µg/mL
COc1ccc(OC)c(Sc2ccncc2)c1,-,-,MIC90,-,H37Rv,-,>6.25 µg/mL
COc1ncc(F)c2nc(S(=O)(=O)Nc3c(O)cccc3C(C)O)nn12,-,visual reading,MIC50,-,M23,INH RIF resistant,0.5 µM
O=C(NCc1ccc(N2CCN(Cc3ccccc3)CC2)nc1)c1ccc([N+](=O)[O-])o1,-,-,MIC,-,UT26,-,0.012 µg/mL
Cc1ccc(Sc2nc(Cl)nc3nc[nH]c23)cc1C,-,-,inhibition,6.25 µg/mL,H37Rv,-,38%
CC(C)CC1C(=O)NCCC(NC(=O)C(N)Cc2ccc(O)cc2)C(=O)NC(Cc2ccccc2)C(=O)NC(Cc2ccccc2)NC1=O,-,resazurin,MIC bound,-,H37Rv,-,>6.25 µg/mL
COc1cccc(CSc2ccncc2)c1,-,-,inhibition,6.25 µg/mL,H37Rv,-,6%
O=[N+]([O-])c1ccc(CSSCc2ccc([N+](=O)[O-])cc2)cc1,-,-,MIC,-,H37Rv,-,100 µg/mL
CC1=NN(C(=O)c2ccncc2)C(=O)C1N=Nc1ccc(S(=O)(=O)Nc2ncccn2)cc1,-,BACTEC,inhibition,12.8 µg/mL,H37Rv,-,38%
O=C(/C=C/c1ccccc1Cl)c1ccccc1,-,MTT,MIC,-,H37Rv,-,32 µg/mL
NS(=O)(=O)c1c(O)c2ccccc2oc1=O,-,BACTEC,inhibition,12.5 µg/mL,H37Rv,-,18%
Oc1ccc(O)c(Cc2ccccc2)c1,-,-,MIC,-,H37Rv,-,25 µg/mL
Clc1nc(Sc2ccccn2)c2[nH]cnc2n1,-,-,MIC,-,H37Ra,-,>12.8 µg/mL
CCOC(=O)c1c(C)oc(C)c(C(=O)OCC)c1=O,-,-,MIC,-,H37Rv,-,>100 µg/mL
CC(C)N=c1cc2n(-c3ccc(Cl)cc3)c3ccccc3nc-2cc1Nc1ccc(Cl)cc1,-,broth dilution / resazurin,MIC,-,MDR22,-,0.25 µg/mL
CNc1ccc(Cl)cc1S(=O)(=O)c1ccccc1[N+](=O)[O-],-,BACTEC,inhibition,12.5 µg/mL,H37Rv,-,26%
N#Cc1ccc(N2CC3CCC2CN3Cc2ccc([N+](=O)[O-])o2)cc1,-,resazurin,MIC90,-,Clinical Isolate 16995,INH RFP resistant,8.89 µg/mL
COc1cccc(CSc2ncccn2)c1,-,-,MIC,-,H37Ra,-,>12.8 µg/mL
O=C1N[C@H](CO)C(=O)N[C@H]1CO,-,BACTEC,MIC,-,H37Rv,-,≥12.5 µg/mL
CC1C(=O)N(C)c2ccc(C(=O)CN3CCN(c4ccc([N+](=O)[O-])cc4)CC3)cc21,-,visual reading / absorbance,MIC,-,H37Rv,-,3.12 µg/mL
c1ccc(-c2oc3ccccc3c2-c2ccccc2)cc1,-,-,MIC,-,H37Rv,-,>100 µg/mL
O=C(/C=C/c1c(F)cccc1Cl)c1ccc(F)cc1,7 d,MTT,MIC,-,H37Rv,-,64 µg/mL
CC(C)(C)c1cccc(N2CCC3(CCN(Cc4ccc([N+](=O)[O-])o4)CC3)CC2)c1,-,resazurin,MIC90,-,Clinical Isolate 16995,INH RFP resistant,9.89 µg/mL
CCCCS(=O)(=O)Nc1ccc2[nH]c(C(=O)Nc3ccc4ccccc4c3)c(C)c2c1,-,resazurin,MIC90,-,H37Rv,-,12.5 µM
CC(=O)c1cnn(-c2ccccc2)c1C,-,-,MIC,-,H37Rv,-,>100 µg/mL
Clc1cc(Cl)c2[nH]c3nc4ccccc4nc3c2c1,-,resazurin,inhibition,6.25 µg/mL,H37Rv,-,4%
CC(=O)NC(C(=O)c1c(C)cc(C)cc1C)c1c(C)cc(C)cc1C,-,-,MIC,-,H37Rv,-,>100 µg/mL
COc1ccc(NC(=O)CC/C(CC(=O)c2ccco2)=N/NC(=O)C(N)=O)cc1,-,BACTEC,MIC bound,-,H37Rv,-,>12.5 µg/mL
CC1C(=O)Nc2ccc(C(=O)CN3CCN(c4ccc([N+](=O)[O-])cc4)CC3)cc21,-,visual reading / absorbance,MIC,-,H37Rv,-,50 µg/mL
Cc1c2oc3c(C)ccc(C(=O)NCCN4CCCCC4)c3nc-2c(C(=O)NCCN2CCCCC2)c(N)c1=O,-,BACTEC,MIC bound,-,H37Rv,-,>12.5 µg/mL
NCC[C@H](O)C(=O)N[C@@H]1C[C@H](N)[C@@H](O[C@H]2O[C@H](CN)[C@@H](O)[C@H](O)[C@H]2O)[C@H](O)[C@H]1O[C@H]1O[C@H](CO)[C@@H](O)[C@H](N)[C@H]1O,-,-,MIC,-,10S,-,2.5 µg/mL
COC(=O)/C(=N\N)C(C(=O)C(=O)Nc1nc(=S)[nH][nH]1)c1nc2ccc([N+](=O)[O-])cc2[nH]c1=O,-,resazurin,inhibition,6.25 µg/mL,H37Rv,-,22%
NC(=O)COc1ccc([As]=O)cc1,-,-,MIC,-,H37Rv,-,>100 µg/mL

9 of the rows above, restated:

smiles	conditions	read by	endpoint	tested at	strain	mutations	result
NNC(=O)c1ccncc1	-	-	MIC	-	4S	-	0.1 µg/mL
NCC[C@H](O)C(=O)N[C@@H]1C[C@H](N)[C@@H](O[C@H]2O[C@H](CN)[C@@H](O)[C@H](O)[C@H]2O)[C@H](O)[C@H]1O[C@H]1O[C@H](CO)[C@@H](O)[C@H](N)[C@H]1O	-	-	MIC	-	10S	-	2.5 µg/mL
C[N+]1(C)CCCCCC1.[Br-]	-	-	MIC	-	H37Rv	-	>100 µg/mL
CC1C(=O)N(C)c2ccc(C(=O)CN3CCN(c4ccc([N+](=O)[O-])cc4)CC3)cc21	-	visual reading / absorbance	MIC	-	H37Rv	-	3.12 µg/mL
CC(=O)NC(C(=O)c1c(C)cc(C)cc1C)c1c(C)cc(C)cc1C	-	-	MIC	-	H37Rv	-	>100 µg/mL
CCOC(=O)c1c(C)oc(C)c(C(=O)OCC)c1=O	-	-	MIC	-	H37Rv	-	>100 µg/mL
O=C(CC(=O)Nc1ccccc1)CC(=O)Nc1ccccc1	-	-	MIC	-	H37Rv	-	>100 µg/mL
COc1ccc(OC)c(Sc2ccncc2)c1	-	-	MIC90	-	H37Rv	-	>6.25 µg/mL
Cl.Nc1cccc(OCCCBr)c1	-	-	MIC	-	H37Rv	-	25 µg/mL

MIC bound: limit read from a one-dose screen. Blank or dashed fields: not listed here. Rows are shuffled and stem from different studies. ECn is the concentration giving n% inhibition of infection, replication or growth. Inhibition is in % at the dose shown (toxicity tests: loss of growth or viability). A number after MIC or MFC names an inhibition level or a share of isolates.